A mixed list of measured activities; the numbers were collected in NIAID ChemDB.

All rows: growth or infection tests; agent: Hepatitis C virus; read-out: EC50

Conditions beyond the fields shown may differ between rows.

compound	strain	mutations	cell line	method	result
Fc1ccc(-c2ccc3nc(NCc4cccnc4)nc(NCC(F)(F)F)c3n2)cc1				replicon	<0.1 µM
Cc1cc2c(Sc3ccc(N)cc3)cc(=O)n(C)c2cc1C			Huh-Luc-Neo	luciferase / replicon	<1 µM
Cc1ccncc1C(=O)Nc1ccc(-c2cc(N(C(=O)C3CCC(C)CC3)C(C)C)c(C(=O)O)s2)cc1	1b			replicon	<0.5 µM
Cn1c(=O)cc(Sc2ccc(N)cc2)c2ccc(Cl)cc21			Huh-Luc-Neo	luciferase / replicon	<1 µM
CC(C)N(C(=O)C1CCC(C)(F)CC1)c1cc(-c2ccc(NC(=O)c3cscn3)cc2)sc1C(=O)O	1a			replicon	<0.5 µM
Cc1cc(NC(=O)CCC(=O)N2c3cccc(O)c3NC3=C(C(=O)CC(C)(C)C3)C2c2ccc(OCc3ccccc3)cc2Cl)c2ccccc2n1	1b			luciferase / reporter gene / replicon	12.66 µM
CCNC(=S)Nc1cccc(OCCCCCc2ccccc2)c1			Ava5-EG(delta4AB)SEAP	reporter gene / fluorescence	0.001–1 µM
C#Cc1cn([C@@H]2O[C@H](CO)[C@@H](O)[C@H]2F)c2ncnc(N)c12	1a		HCV replicon	replicon	0.26 µM
Fc1ccc(-n2ncc3c(NCCc4c[nH]c5ccccc45)ncnc32)c(F)c1			HUH 9B	replicon	1–10 µM
NC(CO)C(=O)Nc1ccc(-c2ccc3nc(NCc4ccc(S(N)(=O)=O)cc4)nc(NCC(F)(F)F)c3n2)cc1				replicon	<0.1 µM
C[C@H](OCc1ccccc1)[C@@H](NC(=O)OC(C)(C)C)C(=O)Nc1ccc(Sc2cc(=O)n(C)c3ccccc23)cc1			Huh-Luc-Neo	luciferase / replicon	1–10 µM
CNC(=O)c1c(-c2ccc(F)cc2)oc2cc(-c3cc(COC)on3)c(OC(C)C)cc12			Huh7	replicon	<1 µM
Cc1cc(-c2cc(N(C(=O)C3CCC(C)CC3)C(C)C)c(C(=O)O)s2)ncc1NC(=O)c1cscn1	1a			replicon	<0.5 µM
Nc1ncnc2c1c(-c1cc3ccccc3o1)cn2[C@@H]1O[C@H](CO)[C@@H](O)C1(F)F	2a		HCV replicon	replicon	1.62 µM
CNC(=O)c1c(-c2ccc(F)cc2)oc2cc(N(CCO)S(C)(=O)=O)c(C3CC3)cc12	C316N genotype 1b		Huh7.5	luciferase	0.257 µM
Cc1ccc(-n2ncc3c(Nc4ccc5[nH]ccc5c4)ncnc32)c(C)c1			HUH 9B	replicon	1–10 µM
CCOc1nc(NCc2ccc(F)cc2)nc2ccc(-c3cccc(NS(=O)(=O)N(C)C)c3)nc12				replicon	<0.1 µM
NC(=S)Nc1cccc(OCCCCCOc2ccc(N3CCCC3)cc2)c1			Ava5-EG(delta4AB)SEAP	reporter gene / fluorescence	0.001–1 µM
Nc1ncnc2c1c(-c1ccco1)cn2[C@@H]1O[C@H](CO)[C@@H](O)[C@H]1F	1b		HCV replicon	replicon	1.85 µM
NC(=S)Nc1ccc(OCCCCCOc2ccccc2)cc1			Ava5-EG(delta4AB)SEAP	reporter gene / fluorescence	0.001–1 µM
Nc1ncnc2c1c(-c1ccccc1)cn2[C@H]1O[C@H](CO)[C@@H](O)C1(F)F	1b		HCV replicon	replicon	2.64 µM
COC(=O)N[C@H](C(=O)N1CCCC1c1ncc(-c2ccc(-c3ccc(-c4cnc([C@@H]5CC(C)CN5C(=O)[C@@H](NC(=O)CO)C(C)C)[nH]4)cc3)cc2)[nH]1)C(C)C	1a	Y93C	Lunet	luciferase	0.0074 µM
CCn1cc(C(=O)Nc2ccc(-c3cc(N(C(=O)C4CCC(C)CC4)C(C)C)c(C(=O)O)s3)cc2)cn1	1a			replicon	>0.5 µM
CC1(C)CC(=O)C2=C(C1)Nc1c(O)cccc1N(C(=O)c1csc(-c3ccncc3)n1)C2c1ccc(OCc2ccccc2)cc1F	1b			luciferase / reporter gene / replicon	2.08 µM
Nc1ncnc2c1c(-c1cccs1)cn2[C@H]1O[C@H](CO)[C@@H](O)C1(F)F	1a		HCV replicon	replicon	1.52 µM
O=C(N[C@@H](C(=O)N1CCC[C@H]1c1ncc(-c2ccc(-c3ccc(-c4cnc([C@@H]5CCCN5C(=O)[C@H](NC(=O)C5CC5)c5ccccc5)s4)cc3)cc2)s1)c1ccccc1)C1CC1	genotype 1b	Y93N	Huh7.5	luciferase / reporter gene	0.003821 µM
Cc1cc(-c2cc(N(C(=O)C3CCC(C)CC3)C(C)C)c(C(=O)O)s2)cnc1NC(=O)c1cscn1	1a			replicon	<0.5 µM
CC(=O)Nc1ccc(Sc2cc(=O)n(C)c3ccccc23)cc1			Huh-Luc-Neo	luciferase / replicon	1–10 µM
Cc1ccc(-n2ncc3c(NC(=O)Nc4ccc(Br)cc4)ncnc32)c(C)c1			HUH 9B	replicon	1–10 µM
CNC(=O)c1c(-c2ccc(F)cc2)oc2cc(NCCOC)c(OC(C)C)cc12			Huh7	replicon	<1 µM
COc1ccc2c(c1)c(Sc1ccc(N)cc1)cc(=O)n2C			Huh-Luc-Neo	luciferase / replicon	<1 µM
Fc1ccc(CNc2nc(O[C@H]3CCOC3)c3nc(-c4ccc(F)cc4)ccc3n2)cc1				replicon	<0.1 µM
COC(=O)N[C@H](C(=O)N1CC2(CC2)C[C@H]1c1ncc(-c2ccc3c(c2)C(F)(F)c2cc(-c4ccc5nc([C@@H]6[C@H]7CC[C@H](C7)N6C(=O)[C@@H](NC(=O)OC)C(C)C)[nH]c5c4)ccc2-3)[nH]1)C(C)C	Genotype 3		HCV replicon	replicon	0.041 µM
COCCOCC(=O)Nc1ccc(Sc2cc(=O)n(C)c3ccccc23)cc1			Huh-Luc-Neo	luciferase / replicon	<1 µM
Nc1ncc(-c2ccc3nc(NCc4ccc(S(N)(=O)=O)cc4)nc(NC4CC4)c3n2)s1				replicon	<0.1 µM
NC(=S)Nc1cccc(OCCCCCOc2ccc(Cc3ccccc3)cc2)c1			Ava5-EG(delta4AB)SEAP	reporter gene / fluorescence	0.001–1 µM
CCOc1nc(NCc2c(F)cc(F)cc2F)nc2ccc(-c3ccc(F)cc3)nc12				replicon	<0.1 µM
Clc1ccccc1-n1ncc2c(NCCc3c[nH]c4ccccc34)ncnc21			HUH 9B	replicon	<1 µM
CNC(=O)c1c(-c2ccccc2)oc2ccc(OC(C)C)cc12			Huh7	replicon	<30 µM
CCCCn1c(=O)c2cc(OC)ccc2c2cc(C(O)(C(F)(F)F)C(F)(F)F)c3c(c21)OCO3	2a		Huh7.5.1	PCR	4.9 µM
CNC(=O)c1c(-c2ccc(F)cc2)oc2cc(-c3ccc[nH]3)c(OC(C)C)cc12			Huh7	replicon	<10 µM
Clc1ccc(-n2ncc3c(NCCc4c[nH]c5ccccc45)ncnc32)c(Cl)c1			HUH 9B	replicon	1–10 µM
NC(=S)Nc1cccc(OCCCOc2ccc(-c3ccccc3)cc2)c1			Ava5-EG(delta4AB)SEAP	reporter gene / fluorescence	0.001–1 µM
Cn1c(=O)cc(Sc2ccc(Br)cc2)c2cc(Cl)ccc21			Huh-Luc-Neo	luciferase / replicon	1–10 µM
NC(=S)Nc1cccc(OCCCCCOc2ccc(N3CCSCC3)cc2)c1			Ava5-EG(delta4AB)SEAP	reporter gene / fluorescence	0.001–1 µM
Nc1ncnc2c1c(-c1ccoc1)cn2[C@@H]1O[C@H](CO)[C@@H](O)C1(F)F	1b		HCV replicon	replicon	13.18 µM
Cc1cccc(-c2ccccc2OCCCCCOc2cccc(NC(N)=S)c2)c1			Ava5-EG(delta4AB)SEAP	reporter gene / fluorescence	0.001–1 µM
CNC(=O)c1c(-c2ccc(F)cc2)oc2cc(N(C(C)c3nn[nH]n3)S(C)(=O)=O)c(OC(C)C)cc12			Huh7	replicon	<1 µM
Nc1ncnc2c1c(I)cn2[C@@H]1O[C@H](CO)[C@@H](O)[C@H]1F	2a		HCV replicon	replicon	4.36 µM
S=C(NCCCCc1ccccc1)Nc1cccc(OCCCCCc2ccccc2)c1			Ava5-EG(delta4AB)SEAP	reporter gene / fluorescence	0.001–1 µM
Cc1ccc(Sc2cc(=O)n(C)c3cc(C)c(C)cc23)cc1			Huh-Luc-Neo	luciferase / replicon	<1 µM
Cc1ccc(-n2ncc3c(Nc4ccc(N5CCOCC5)cc4)ncnc32)c(C)c1			HUH 9B	replicon	<1 µM
Cc1ncoc1C(=O)Nc1ccc(-c2cc(N(C(=O)C3CCC(C)CC3)C(C)C)c(C(=O)O)s2)cc1	1a			replicon	>0.5 µM
CNC(=O)c1c(-c2ccc(F)cc2)oc2cc(N(C)S(C)(=O)=O)c(OCc3ccc(C(=O)O)c(O)c3)cc12			Huh7	replicon	<10 µM
CC1(C)CC(=O)C2=C(C1)Nc1c(O)cccc1N(C(=O)c1ccccc1F)C2c1ccc(OCc2ccccc2)cc1F	1b			luciferase / reporter gene / replicon	12.25 µM
COc1ccc(Cl)cc1Nc1ncnc2c1cnn2-c1ccccc1Cl			HUH 9B	replicon	>10 µM
CN(CCS(C)(=O)=O)c1nc(NCc2ccc(F)cc2)nc2ccc(-c3cccc(N(CCO)S(C)(=O)=O)c3)nc12				replicon	<0.1 µM
CC(C)C(=O)N1c2cccc(O)c2NC2=C(C(=O)CC(C)(C)C2)C1c1ccc(OCc2cc(F)cc(F)c2)cc1F	1b			luciferase / reporter gene / replicon	3.86 µM
CNC(=O)c1c(-c2ccc(F)c(F)c2)oc2ccc(OC)cc12			Huh7	replicon	<10 µM
NS(=O)(=O)c1ccc(CNc2nc(NCC(F)(F)F)c3nc(-c4ccnnc4)ccc3n2)cc1				replicon	<0.1 µM
Cc1ccc(-n2ncc3c(Nc4ccc(OC(F)(F)F)cc4)ncnc32)c(C)c1			HUH 9B	replicon	1–10 µM
COc1cccc(OCCCCCOc2cccc(NC(N)=S)c2)c1			Ava5-EG(delta4AB)SEAP	reporter gene / fluorescence	0.001–1 µM

Two numbers with a dash give a range or band. ECn is the concentration giving n% inhibition of infection, replication or growth. Blank or dashed fields: not listed here.